Measured values from several laboratories, pooled; numbers as filed in NIAID ChemDB.

Common to all: whole-cell or culture tests; organism: Mycobacterium tuberculosis

Percent inhibition refers to the dose given; in toxicity tests it is the harm to the cells. ECn: concentration that inhibits the pathogen or its effect by n%. Lines come from different laboratories, so protocols vary. MIC50, MIC90 and the like: level of inhibition, or share of isolates inhibited. Two numbers with a dash give a range or band. An empty or dashed field is not shown. MIC bound: limit read from a one-dose screen.

compound	strain or isolate	setting	read by	cells	changes	tested at	endpoint	result
CC(C)CC(NC(=O)C(CO)NC(=O)OCc1ccccc1)C(=O)NC(Cc1ccc(O)cc1)C(N)=O	H37Rv		BACTEC			12.5 µg/mL	inhibition	19%
CC1CN(c2c(F)cc3c(=O)c(C(=O)O)cn(C4CC4)c3c2F)CCN1	CSU18						MIC	≤0.125 µg/mL
Cc1ccc(CSc2ccccn2)cc1	H37Rv						MIC90	>6.25 µg/mL
O=C1CC(c2cccc(Cl)c2)Oc2ccccc21						12.5 µg/mL	inhibition	0%
Cc1ccc(NC(=S)N=Nc2c(O)[nH]c3ccc(OC(F)(F)F)cc23)cc1	H37Rv		broth dilution / resazurin				EC90	>100 µg/mL
CN[C@@H]1[C@H](O[C@H]2[C@H](O[C@H]3[C@H](O)[C@@H](O)[C@H](N=C(N)N)[C@@H](O)[C@@H]3N=C(N)N)O[C@@H](C)[C@]2(O)C=O)O[C@@H](CO)[C@H](O)[C@H]1O	50194						MIC	≥2 µg/mL
Cc1ccc(NC(=S)N=Nc2c(O)[nH]c3ccc(C)cc23)cc1	H37Rv		broth dilution / resazurin				EC50	1.422 µg/mL
CC(C)N=c1cc2n(-c3ccc(Cl)cc3)c3ccccc3nc-2cc1Nc1ccc(Cl)cc1	2225	multidrug-resistant					MIC	0.5 µg/mL
NC1CCN(c2nc3c(cc2F)c(=O)c(C(=O)O)cn3-c2ccc(F)cc2F)C1	ATCC 35826						MIC	2 µg/mL
Clc1nc(Sc2ccncc2)c2[nH]cnc2n1	H37Rv						MIC90	>6.25 µg/mL
CNC(=S)N=Nc1c(O)[nH]c2ccc(OC(F)(F)F)cc12	H37Rv		broth dilution / resazurin				EC90	>100 µg/mL
CCOc1ccc2c(N/N=C/c3ccc(N(CC)CC)cc3)cc(C)nc2c1	H37Rv			VERO		12.5 µg/mL	inhibition	100%
COc1ccc(Sc2ncnc3nc[nH]c23)c(OC)c1	H37Rv					6.25 µg/mL	inhibition	33%
O=C(/C=C/C(=O)c1ccccc1)NC[C@H]1CN(c2ccc(N3CCCCC3)c(F)c2)C(=O)O1	10 clinical isolates sensitive						MIC	>16 µg/mL
COc1ccc(C(=O)/C=C/c2ccncc2)cc1							EC50	>12.5 µg/mL
CCCCCc1cc(OC)c2ccccc2n1	MT4						MIC	42 µg/mL
CO[C@H]1/C=C/O[C@@]2(C)Oc3c(C)c(O)c4c(O)c(c(/C=N/N5CCN(C6CCCC6)CC5)c(O)c4c3C2=O)NC(=O)/C(C)=C\C=C\[C@H](C)[C@H](O)[C@@H](C)[C@@H](O)[C@@H](C)[C@H](OC(C)=O)[C@@H]1C	H37Ra						Median MIC	≤0.006 µg/mL
NC1CCN(c2c(F)cc3c(=O)c(C(=O)O)cn(C4CC4)c3c2Cl)C1	MDR						MBC90	4 µg/mL
CC(=O)O[C@H]1C(=O)[C@@]2(C)[C@H]([C@H](OC(=O)c3ccccc3)[C@]3(O)C[C@H](OC(=O)[C@H](O)[C@@H](NC(=O)c4ccccc4)c4ccccc4)C(C)=C1C3(C)C)[C@]1(OC(C)=O)CO[C@@H]1C[C@@H]2O	H37Rv		BACTEC			12.8 µg/mL	inhibition	77%
Cc1onc(-c2ccccc2Cl)c1C(=O)N[C@@H]1C(=O)N2[C@@H]1SC(C)(C)[C@@H]2C(=O)O	H37Ra						Median MIC	128 µg/mL
NC(=O)c1cnccn1	Isolate 11135 monodrug-resistant						MIC	>300 µg/mL
COc1ccc(/C=N/Nc2ccnc3ccccc23)c2ccccc12	H37Rv			VERO			MIC	3.13 µg/mL
CCOC(=O)C(=O)C1C(=O)N(C)C2(C)CC1c1ccccc1O2	H37Rv		BACTEC			12.5 µg/mL	inhibition	2%
O=c1oc2ccc([N+](=O)[O-])cc2c(=O)n1-c1cccc([N+](=O)[O-])c1	CNCTC MY331/88						MIC	125 µM
CC(C)Cc1ccc(C(=O)CCC(=O)NC[C@H]2CN(c3ccc(-n4cncn4)c(F)c3)C(=O)O2)cc1	10 clinical isolates sensitive						MIC	2–4 µg/mL
Cc1cc(C(N)=O)c(C(N)=O)c(=O)[nH]1	H37Rv		BACTEC			12.5 µg/mL	inhibition	2%
COc1cccc(CSc2ncnc3nc[nH]c23)c1	H37Rv					6.25 µg/mL	inhibition	18%
CC(=O)NC[C@H]1CN(c2ccc(N3CCOCC3)c(F)c2)C(=O)O1	Clinical isolate 71 A		resazurin		INH RIF resistant		MIC	0.25 µg/mL
COc1c2c(cc3ccc(=O)oc13)C(Cl)C(Cl)O2	H37Rv		BACTEC			12.5 µg/mL	inhibition	25%
CCNC(=S)N=Nc1c(O)[nH]c2ccc(OC(F)(F)F)cc12	H37Rv		broth dilution / resazurin				EC90	>100 µg/mL
N[C@@H]1CONC1=O	H37Ra						Median MIC	25 µg/mL
COc1cccc(Sc2ncccn2)c1	H37Rv					6.25 µg/mL	inhibition	0%
CO[C@H]1/C=C/O[C@@]2(C)Oc3c(C)c(O)c4c(O)c(c(/C=N/N5CCN(C6CCCC6)CC5)c(O)c4c3C2=O)NC(=O)/C(C)=C\C=C\[C@H](C)[C@H](O)[C@@H](C)[C@@H](O)[C@@H](C)[C@H](OC(C)=O)[C@@H]1C	1029						MIC	0.16 µg/mL
CCCCNC(=S)N=Nc1c(O)n(CN2CCOCC2)c2ccc(OC(F)(F)F)cc12	H37Rv		broth dilution / resazurin				EC50	12.3 µg/mL
CCOC(=O)c1sc(C(=O)O)cc1-c1cccs1	H37Rv		BACTEC				MIC bound	>12.5 µg/mL
O=C(O)c1cn(C2CC2)c2c(F)c(N3CCSCC3)c(F)cc2c1=O	CSU20						MIC	1 µg/mL
N#Cc1ccccc1NC(=O)C(=O)C(C(=O)c1ccncc1)C1OC(=O)c2ccccc21	H37Rv		resazurin				MIC bound	>6.25 µg/mL
O=c1nc(SCc2cccnc2)c2[nH]cnc2[nH]1	H37Rv					6.25 µg/mL	inhibition	1%
NNC(=O)c1ccncc1	CSU27						MIC	≤0.125 µg/mL
Oc1[nH]c2ccc(OC(F)(F)F)cc2c1N=NC(=S)Nc1ccc(F)cc1	H37Rv		broth dilution / resazurin				EC90	1.546 µg/mL
O=c1oc2ccccc2c(=O)n1-c1ccc(Cl)c(Cl)c1	CNCTC MY331/88						MIC	8 µM
COc1ccccc1CSc1ccccn1	H37Rv					6.25 µg/mL	inhibition	5%
COc1ccc2c(N/N=C/c3ccc(OC)c4ccccc34)cc(C)nc2c1	H37Rv			VERO			MIC	1.56 µg/mL
C[C@H]1C[C@H](N)CN1c1cc2c(cc1F)c(=O)c(C(=O)O)cn2-c1ccc(F)cc1F	DRUG-SUS						MIC50	2 µg/mL
C/C(=N\NC(=O)Cc1c[nH]c2ccccc12)C1CCC2C3CC=C4CC(O)CCC4(C)C3CCC12C	H37Rv		BACTEC				MIC bound	>12.5 µg/mL
C=C/C(C)=C/[C@@]1(C)SC(=O)C(C)=C1O	PMH29						MIC	2.5 µg/mL
O=c1oc2ccc(F)cc2c(=O)n1-c1ccccc1	CNCTC MY331/88						MIC	62 µM
Cl.Nc1ccc2ccc3ccc(N)nc3c2n1	H37Rv		BACTEC			12.5 µg/mL	inhibition	21%
NNC(=O)c1ccncc1	Strain 328						MIC	8 µg/mL
O=C1CC(c2ccccc2)Oc2cc(Br)ccc21	H37Rv						EC50	>12.5 µg/mL
CCCCc1ccc2nc(C)cc(NN)c2c1	H37Rv			VERO		12.5 µg/mL	inhibition	99%
CC(=O)NC[C@H]1CN(c2ccc(N3CCOCC3)c(F)c2)C(=O)O1	Strain 158						MIC	>16 µg/mL
O=[N+]([O-])c1ccc(N2CCOCC2)c2c1no[n+]2[O-]	H37Rv		BACTEC				MIC	6.25 µg/mL
CC(=O)OC[C@H]1O[C@@H](Oc2cc(OC(C)=O)c3c(=O)cc(-c4ccc(OC(C)=O)cc4)oc3c2C2C(=O)c3c(OC(C)=O)cc(OC(C)=O)cc3OC2c2ccc(OC(C)=O)cc2)[C@H](OC(C)=O)[C@@H](OC(C)=O)[C@@H]1OC(C)=O	H37Rv						EC50	>12.5 µg/mL
CC(CO)CCC1OC2CC3C4CCC5CC(O)CCC5(C)C4CCC3(C)C2C1C	H37Rv		BACTEC				MIC bound	>12.5 µg/mL
COc1ccc(CCc2cc(OC)c3ccccc3n2)cc1OC	MT9						MIC	50 µg/mL
Cc1ccccc1Sc1ncnc2nc[nH]c12	H37Ra						MIC	>12.8 µg/mL
O=c1oc2cc(Cl)ccc2c(=O)n1-c1ccc(Br)cc1	CNCTC MY331/88						MIC	8 µM
CC[C@H]1OC(=O)[C@H](C)[C@@H](O[C@H]2C[C@@](C)(OC)[C@@H](O)[C@H](C)O2)[C@H](C)[C@@H](O[C@@H]2O[C@H](C)C[C@H](N(C)C)[C@H]2O)[C@](C)(OC)C[C@@H](C)C(=O)[C@H](C)[C@@H](O)[C@]1(C)O	89996						MIC	>4 µg/mL
NC(=O)c1cnccn1	W11053/NIACIN+						MIC	512 µg/mL
CO[C@H]1/C=C/O[C@@]2(C)Oc3c(C)c(O)c4c(=O)c(c5oc6cc(N7CCN(CC(C)C)CC7)cc(=O)c6nc5c4c3=C2O)NC(=O)/C(C)=C\C=C\[C@H](C)[C@H](O)[C@@H](C)[C@@H](O)[C@@H](C)[C@H](OC(C)=O)[C@@H]1C	30 isolates						MIC50	0.016 µg/mL
COC(=O)[C@H](Cc1ccc(OC(C)(C)C)cc1)N[C@H](C)C(=O)N[C@@H](Cc1ccccc1)C(=O)OCc1ccccc1	H37Rv		resazurin				MIC bound	>6.25 µg/mL
O=C(CCC(=O)c1cccs1)NC[C@H]1CN(c2ccc(-n3cncn3)c(F)c2)C(=O)O1	ATCC 27294						MIC	1 µg/mL
O=C1OCC/C1=C1\NCCNC1=O	H37Rv		BACTEC				MIC	≥12.5 µg/mL
COc1cc(OC)c2c(c1)OC(c1cc(OC)c(OC)c(OC)c1)CC2=O						12.5 µg/mL	inhibition	0%
O=C1CC(N2C(=O)c3ccccc3C2=O)C(=O)N1	H37Rv		BACTEC				MIC bound	>12.5 µg/mL
COc1ccc(C2Oc3c(I)cccc3C(=O)C2O)cc1						12.5 µg/mL	inhibition	6%
CC(C)=CCC/C(C)=C/CN1C(=O)CN(C)C1=O	H37Rv		BACTEC			12.5 µg/mL	inhibition	0%
CO[C@H]1/C=C/O[C@@]2(C)Oc3c(C)c(O)c4c(O)c(c(/C=N/N5CCN(C/C=C/c6ccccc6)CC5)c(O)c4c3C2=O)NC(=O)/C(C)=C\C=C\[C@H](C)[C@H](O)[C@@H](C)[C@@H](O)[C@@H](C)[C@H](OC(C)=O)[C@@H]1C	2242 (RIF-S)						MIC	0.015 µg/mL
C=CCC1=CC2(OC)C1C(OC)(OC)C(=O)C1(CC=C)C=C(OC)C(=O)C(OC)(OC)C12	H37Rv		BACTEC				MIC	≥12.5 µg/mL
O=C(CCC(=O)c1ccc2ccccc2c1)NC[C@H]1CN(c2ccc(N3CCOCC3)c(F)c2)C(=O)O1	ATCC 27294						MIC	5 µg/mL
CCCCC(=O)NN(Cn1c(=S)sc2ccccc21)Cn1c(=S)sc2ccccc21	H37Rv		BACTEC				MIC bound	>12.5 µg/mL
NC[C@@H]1O[C@H](O[C@H]2[C@@H](O)[C@H](O[C@@H]3[C@@H](O)[C@H](N)C[C@H](N)[C@H]3O[C@H]3O[C@H](CO)[C@@H](O)[C@H](O)[C@H]3N)O[C@@H]2CO)[C@H](N)[C@@H](O)[C@@H]1O	H37Ra						Median MIC	4 µg/mL
CCC1C[N+]2=C(c3cc(OC)c(OC)cc3CC2)c2c1cc1n2CCc2cc(OC)c(OC)cc2-1	PZA-R						MIC	6.4 µg/mL
C[C@H]1COc2c(N3CCN(C)CC3)c(F)cc3c(=O)c(C(=O)O)cn1c23	Strain 24						MIC	0.125 µg/mL
O=C1/C(=c2\c3ccccc3n3c(=O)c4ccccc4nc23)Nc2ccccc21	H37Rv		BACTEC				MIC bound	>12.5 µg/mL
CO[C@H]1/C=C/O[C@@]2(C)Oc3c(C)c(O)c4c(O)c(c5c(c4c3C2=O)NC2(CCN(CC(C)C)CC2)N=5)=NC(=O)/C(C)=C\C=C\[C@H](C)[C@H](O)[C@@H](C)[C@@H](O)[C@@H](C)[C@H](OC(C)=O)[C@@H]1C	2219 (rifampicin-resistant)						MIC	>2 µg/mL
Nc1cc(C(=O)O)nc(N)n1	H37Rv		BACTEC			12.5 µg/mL	inhibition	0%
CC1CN(c2cc3c(cc2F)c(=O)c(C(=O)O)cn3-c2ccc(F)cc2F)CCN1	ATCC 35827						MBC	2 µg/mL

For reference, 11 entries again:

compound,strain or isolate,setting,read by,cells,changes,tested at,endpoint,result
O=C(/C=C/C(=O)c1ccccc1)NC[C@H]1CN(c2ccc(N3CCCCC3)c(F)c2)C(=O)O1,10 clinical isolates sensitive,,,,,,MIC,>16 µg/mL
O=C1CC(c2ccccc2)Oc2cc(Br)ccc21,H37Rv,,,,,,EC50,>12.5 µg/mL
O=C1/C(=c2\c3ccccc3n3c(=O)c4ccccc4nc23)Nc2ccccc21,H37Rv,,BACTEC,,,,MIC bound,>12.5 µg/mL
NC(=O)c1cnccn1,Isolate 11135 monodrug-resistant,,,,,,MIC,>300 µg/mL
CC(C)CC(NC(=O)C(CO)NC(=O)OCc1ccccc1)C(=O)NC(Cc1ccc(O)cc1)C(N)=O,H37Rv,,BACTEC,,,12.5 µg/mL,inhibition,19%
C=C/C(C)=C/[C@@]1(C)SC(=O)C(C)=C1O,PMH29,,,,,,MIC,2.5 µg/mL
CC(C)=CCC/C(C)=C/CN1C(=O)CN(C)C1=O,H37Rv,,BACTEC,,,12.5 µg/mL,inhibition,0%
CO[C@H]1/C=C/O[C@@]2(C)Oc3c(C)c(O)c4c(O)c(c5c(c4c3C2=O)NC2(CCN(CC(C)C)CC2)N=5)=NC(=O)/C(C)=C\C=C\[C@H](C)[C@H](O)[C@@H](C)[C@@H](O)[C@@H](C)[C@H](OC(C)=O)[C@@H]1C,2219 (rifampicin-resistant),,,,,,MIC,>2 µg/mL
Oc1[nH]c2ccc(OC(F)(F)F)cc2c1N=NC(=S)Nc1ccc(F)cc1,H37Rv,,broth dilution / resazurin,,,,EC90,1.546 µg/mL
CCCCc1ccc2nc(C)cc(NN)c2c1,H37Rv,,,VERO,,12.5 µg/mL,inhibition,99%
CO[C@H]1/C=C/O[C@@]2(C)Oc3c(C)c(O)c4c(O)c(c(/C=N/N5CCN(C6CCCC6)CC5)c(O)c4c3C2=O)NC(=O)/C(C)=C\C=C\[C@H](C)[C@H](O)[C@@H](C)[C@@H](O)[C@@H](C)[C@H](OC(C)=O)[C@@H]1C,1029,,,,,,MIC,0.16 µg/mL